Compound potency records, mixed from different reports. Data source: NIAID ChemDB in PubChem.

Shared fields: tests in culture; agent: Mycobacterium avium complex

Percent inhibition refers to the dose given; in toxicity tests it is the harm to the cells.

SMILES	tested at	strain or isolate	method	measure	result
CN1CC2CCC1CN2c1c(F)cc2c(=O)c(C(=O)O)cn(C3CC3)c2c1F		14 strains		MIC50	1 µg/mL
CN[C@@H]1[C@H](O[C@H]2[C@H](O[C@H]3[C@H](O)[C@@H](O)[C@H](N=C(N)N)[C@@H](O)[C@@H]3N=C(N)N)O[C@@H](C)[C@]2(O)C=O)O[C@@H](CO)[C@H](O)[C@H]1O		Isolate C-35		MIC	200 µg/mL
Nc1ccc(C(=O)O)c(O)c1	5 µg/mL	97 strains	agar	inhibition	4%
NCC[C@H](O)C(=O)N[C@@H]1C[C@H](N)[C@@H](O[C@H]2O[C@H](CN)[C@@H](O)[C@H](O)[C@H]2O)[C@H](O)[C@H]1O[C@H]1O[C@H](CO)[C@@H](O)[C@H](N)[C@H]1O		CH-4/HIV+		MIC	<1.25 µg/mL
CO/N=C(/C(=O)N[C@@H]1C(=O)N2C(C(=O)[O-])=C(C[N+]3(C)CCCC3)CS[C@H]12)c1csc(N)n1	8 µg/mL	14 strains		inhibition	0%
O=[N+]([O-])[O][Ga]([O][N+](=O)[O-])[O][N+](=O)[O-]	500 µM	1		inhibition	90%
COC1CCN(c2c(F)cc3c(=O)c(C(=O)O)cn(C4CC4)c3c2F)C1		1760694		MIC	4 µg/mL
C[C@@H]1CN(c2c(F)c(N)c3c(=O)c(C(=O)O)cn(C4CC4)c3c2F)C[C@H](C)N1		21	broth dilution	MIC	0.5 µg/mL
CO[C@H]1/C=C/O[C@@]2(C)Oc3c(C)c(O)c4c(O)c(c5c(c4c3C2=O)NC2(CCN(CC(C)C)CC2)N=5)=NC(=O)/C(C)=C\C=C\[C@H](C)[C@H](O)[C@@H](C)[C@@H](O)[C@@H](C)[C@H](OC(C)=O)[C@@H]1C		921-5		MBC	16 µg/mL
CC[C@@H](CO)NCCN[C@@H](CC)CO		3219		MIC	32 µg/mL
O=C(N[C@H]([C@H](O)CNCc1cccc(I)c1)C(F)(F)c1ccccc1)OCc1ccccc1	50 µg/disc	P	agar diffusion	zone	0 mm
CC1CN(c2c(F)cc3c(=O)c(C(=O)O)cn(C4CC4)c3c2F)CC(C)N1		PI12/39		MIC	1 µg/mL
CC1CN(c2cc3c(cc2F)c(=O)c(C(=O)O)cn3-c2ccc(F)cc2F)CCN1		3220		MIC	8 µg/mL
O=C(O)c1cn(C2CC2)c2c(F)c(N3CCC(NC4CC4)C3)c(F)cc2c1=O		1172733		MIC	1 µg/mL
NC[C@@H]1O[C@H](O[C@H]2[C@@H](O)[C@H](O[C@@H]3[C@@H](O)[C@H](N)C[C@H](N)[C@H]3O[C@H]3O[C@H](CO)[C@@H](O)[C@H](O)[C@H]3N)O[C@@H]2CO)[C@H](N)[C@@H](O)[C@@H]1O		CH-1/HIV+		MIC	3.12 µg/mL
O=C(O)c1cn(C2CC2)c2c(F)c(N3CCSCC3)c(F)cc2c1=O		1760694		MIC	32 µg/mL
CC[C@H]1OC(=O)[C@H](C)[C@@H](O[C@H]2C[C@@](C)(OC)[C@@H](O)[C@H](C)O2)[C@H](C)[C@@H](O[C@@H]2O[C@H](C)C[C@H](N(C)C)[C@H]2O)[C@](C)(O)C[C@@H](C)C(=O)[C@H](C)[C@@H](O)[C@]1(C)O		3220		MIC	32 µg/mL

Again, the opening 2 rows:

{"SMILES": "CN1CC2CCC1CN2c1c(F)cc2c(=O)c(C(=O)O)cn(C3CC3)c2c1F", "strain or isolate": "14 strains", "measure": "MIC50", "result": "1 µg/mL"}
{"SMILES": "CN[C@@H]1[C@H](O[C@H]2[C@H](O[C@H]3[C@H](O)[C@@H](O)[C@H](N=C(N)N)[C@@H](O)[C@@H]3N=C(N)N)O[C@@H](C)[C@]2(O)C=O)O[C@@H](CO)[C@H](O)[C@H]1O", "strain or isolate": "Isolate C-35", "measure": "MIC", "result": "200 µg/mL"}

MIC50, MIC90 and the like: level of inhibition, or share of isolates inhibited. An empty or dashed field is not shown. Zones are inhibition diameters on agar. Rows are shuffled and stem from different studies.